In article PMC9963587 (Molecules, 2023):

System: LASVpv (LASV pseudotyped virus bearing LASV GPC, Josiah strain)
Assay: LASVpv infection inhibition assay (HIV-1 pseudotyped virus bearing LASV GPC, luciferase/EGFP readout) in HEK-293 cells
Assay type: cell-based, Lassa virus
Settings: selection index, CC50 in HEK-293 cells / IC50 against LASVpv

SMILES | SI (CC50/IC50)
CC(C)Oc1ccc(-n2cnc3cc(/C=C\c4ccc(C(C)(C)C)cc4)ccc32)cc1 [Compound 7a−Z, (Z)-5-(4-(tert-butyl)styryl)-1-(4-isopropoxyphenyl)-1H-benzo[d]imidazole] | 770
Cc1ccc(/C=C\c2ccc3c(c2)ncn3-c2ccc(OC(C)C)cc2)cc1 [Compound 7c−Z, (Z)-1-(4-isopropoxyphenyl)-5-(4-methylstyryl)-1H-benzo[d]imidazole] | 567
CC(C)Oc1ccc(-n2cnc3cc(/C=C\c4ccc(OC(F)F)cc4)ccc32)cc1 [Compound 7e−Z, (Z)-5-(4-(difluoromethoxy)styryl)-1-(4-isopropoxyphenyl)-1H-benzo[d]imidazole] | 520
CC(C)Oc1ccc(-n2cnc3cc(/C=C\c4ccc(OC(F)(F)F)cc4)ccc32)cc1 [Compound 7f−Z, (Z)-1-(4-isopropoxyphenyl)-5-(4-(trifluoromethoxy)styryl)-1H-benzo[d]imidazole] | 279
CC(C)Oc1ccc(-n2cnc3cc(/C=C\c4ccc(C(F)(F)F)cc4)ccc32)cc1 [Compound 7g−Z, (Z)-1-(4-isopropoxyphenyl)-5-(4-(trifluoromethyl)styryl)-1H-benzo[d]imidazole] | 838
COc1ccc(-n2cnc3cc(NCc4ccc(OC)c(O)c4)ccc32)cc1 [Compound 13a, 2-methoxy-5-(((1-(4-methoxyphenyl)-1H-benzo[d]imidazol-5-yl)amino)methyl)phenol] | 1316
COc1ccc(-n2cnc3cc(NCc4ccc(O)c(OC)c4)ccc32)cc1 [Compound 13b, 2-methoxy-4-(((1-(4-methoxyphenyl)-1H-benzo[d]imidazol-5-yl)amino)methyl)phenol] | 1327
COc1ccc(-n2cnc3cc(NCc4cc(OC)c(O)c(OC)c4)ccc32)cc1 [Compound 13e, 2,6-dimethoxy-4-(((1-(4-methoxyphenyl)-1H-benzo[d]imidazol-5-yl)amino)methyl)phenol] | 1758
COc1ccc(CNc2ccc3c(c2)ncn3-c2ccc(OC)cc2)cc1 [Compound 13g, N-(4-methoxybenzyl)-1-(4-methoxyphenyl)-1H-benzo[d]imidazol-5-amine] | 1805
COc1ccc(-n2cnc3cc(NCc4ccc(Cl)c(Cl)c4)ccc32)cc1 [Compound 13i, N-(3,4-dichlorobenzyl)-1-(4-methoxyphenyl)-1H-benzo[d]imidazol-5-amine] | 1538
COc1ccc(-n2cnc3cc(NCc4ccc(C(F)(F)F)cc4)ccc32)cc1 [Compound 13j, 1-(4-methoxyphenyl)-N-(4-(trifluoromethyl)benzyl)-1H-benzo[d]imidazol-5-amine] | 1706
CC(C)Oc1ccc(-n2cnc3cc(/C=C\c4ccc(C(C)(C)O)cc4)ccc32)cc1 [LHF−535, reference compound] | 1208
COc1ccc(-n2cnc3cc(NCc4ccc(C(C)C)cc4)ccc32)cc1 [ST−193, reference compound] | 1265
